# Primary screen of a compound library

Source: ChEMBL document CHEMBL3988442, “University of Dundee, Small-Polar-MMV Screening Library” (2021).

Mtb cholesterol medium: 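Whole-cell growth test on Mycobacterium tuberculosis, read after 4 days in a medium based on cholesterol and the lipid DPPC; the read-out is not stated. Compounds at 500 µM. Direction is inferred from retests: higher values go with more growth inhibition. Size under these conditions: about 18,000 compounds, about 900 of them at 50% or above in at least one test.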
Mtb glucose medium: 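Whole-cell growth test on Mycobacterium tuberculosis, read after 3 days in glucose-containing 7H9 medium; the read-out is not stated. Compounds at 500 µM. The record gives no direction; compounds that gave an IC50 in retests scored well above the rest, so higher reads as more growth inhibition. Of about 18,000 compounds tested this way, about 1,400 (7.9%) reached 50% or more in at least one test.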

The filed quantity is “Percent Effect” (%). The controls that fix the scale are not given in the record; negative values are as filed. The entries come from a sample that favours strong results. A dash means the value is not listed here; it may have been measured.

structure,Mtb cholesterol medium,Mtb glucose medium
CC(NC(=O)c1cccn1C(C)C)c1ncon1 (centres unmarked),-,8.42
OCCCNC(c1ccccc1)c1ccccn1 (centres unmarked),53.99,51.75
OCC(O)CSCc1c(Cl)ccc2cccnc12 (centres unmarked),-19.04,18.78
O=C(c1cccc(=O)[nH]1)N1CC(N2CCCCC2)C1,-21.8,-
CC(=O)NC1C(=O)N(C(C)C)c2ccc(C)cc21 (centres unmarked),15.61,-
CCC[C@H]1CN(C(=O)CCn2ccnc2CC)C[C@@H]1N,-,12.48
CC1=CC[C@@H]2CN(C(=O)c3n[nH]c(N)c3Cl)C[C@@H]2C1,-,37.11
CN(C)S(=O)(=O)Nc1ccc2c(c1)C(=O)CCC2,-,32.74
CCOc1ccc(S(=O)(=O)NCCC(C)N)c(C)c1 (centres unmarked),6.892,36.8
COCc1ccccc1CS(N)(=O)=O,-,1.35
CC(N)Cc1nc(-c2ccccc2)no1 (centres unmarked),41.8,58.01
CC(C)c1nc(NCc2cccnc2)n(C)n1,-7.588,-11.56
CCSC1(CNC(=O)c2ccc[nH]2)CCOCC1,22.27,-
CC(CN)CNC(=O)c1ccc(C(F)(F)F)cc1 (centres unmarked),-,51.73
COCCCN1CCC(CNc2ccncn2)C1 (centres unmarked),4.121,-
CN1CCC(CNC(=O)Nc2ccccc2F)CC1,-9.189,-
CNC(=O)NC(=O)CCN1CCc2ccccc2C1,77.22,83.78
CCOCC(=O)NCC1(O)CCCc2ccccc21 (centres unmarked),51.85,59.88
Cc1cc(NC(=O)C[S+]([O-])c2cccs2)no1 (centres unmarked),10.64,-
CC(C)OCCN1CCC(N)CC1,-,4.998
C[S+]([O-])c1nncn1CSCc1ccc(Cl)cc1 (centres unmarked),48.5,-
CC(C)(C#N)C(=O)Nc1ncccc1Cl,-,1.995
CC1CS(=O)(=O)CCN1Cc1ccc(F)c(C#N)c1 (centres unmarked),-17.01,-
FCC1CNCCCO1 (centres unmarked),-,-2.581
Cc1cc(C(=O)NCc2ccccn2)[nH]n1,5.781,-3.122
CS(=O)(=O)NCCOc1nc(-c2ccccc2Cl)no1,4.757,-
CC(NC(=O)CNC(=O)C1CC1)c1ccc(F)c(F)c1 (centres unmarked),-,28.06
Cc1ccnc(N(C)CC2(CO)CCOCC2)n1,-,22.88
OCCOc1ccc(CNC2CC2)cc1,7.932,11.19
CCC1CN(C2=NS(=O)(=O)c3ccccc32)CCO1 (centres unmarked),8.337,-
Cc1nnnn1CCC(=O)NC(C)Cn1cccn1 (centres unmarked),-,-7.911
O=C(NCc1cn2ccccc2n1)C1CCC1,-26.15,-
C=C(C)CCOC(=O)c1ccc(CS(C)(=O)=O)cc1,79.17,62.68
COc1cc(S(=O)(=O)NCc2ccnn2C)ccc1F,7.06,-
N#Cc1ccc(C(=O)NCCCc2ncc[nH]2)cn1,-,4.582
CCCc1nc(C(=O)NCCc2cccnc2)cs1,77.6,74.85
C=C(Br)CNC(=O)Cc1c(F)cccc1F,6.573,-
COc1cccc(C(O)c2nccn2C)c1 (centres unmarked),23.88,-
NC(=O)CCC(=O)c1ccc2c(c1)OCCO2,14.9,34.72
CCCn1ccnc1CN(C)Cc1nc(C)no1,7.294,-
N#Cc1ccnc(-n2ccnc2)c1,-,-6.345
O=C(CC1C=CCC1)N1CCN(c2ccccn2)CC1 (centres unmarked),62.01,56.51
OCc1nc(N2CCSCC2)c2ccccc2n1,0.2235,-
Fc1ccccc1CN1CCn2ccnc2C1,-,-8.789
Cc1cccc2[nH]c(C(C)O)nc12 (centres unmarked),-,26.01
Cn1cc(C(C)(O)CNc2cccc(F)c2C#N)cn1 (centres unmarked),6.229,-
c1cnn(CCNCc2ccc3c(c2)CCO3)c1,4.725,-
O=C(c1cc(C2CC2)n[nH]1)N1CCCC(O)(CO)CC1 (centres unmarked),-,-1.284
CCn1cnnc1CNC(=O)NC(C)Cn1cccn1 (centres unmarked),-,10.13
CCS(=O)(=O)c1ccc(CN)cc1F,-,8.32
CC(C)CCC(O)CN1CCCN(C(N)=O)CC1 (centres unmarked),-,28.15
Cn1nccc1[C@H]1OCC[C@@H]1N,-8.576,-
NC(=O)c1noc2c1CCCC2,8.362,-1.738
CC(=O)N1CCc2cc(NC(=O)c3ccsc3)ccc21,-,4.584
CCC(C(=O)Nc1ccc(OC)cc1)N(C)C (centres unmarked),-,12.84
O=C(NCc1ccco1)Nc1nc2c(s1)COCC2,51.21,52.12
Cc1cc(F)ccc1CN1CCOC(CCN)C1 (centres unmarked),17.51,39.34
OCc1csc(N2CCC3(CC2)OCCCC3O)n1 (centres unmarked),-45.28,-
CCN(CC)C(=O)N(C)Cc1nnc[nH]1,-,-7.07
N#CCCNC(=O)CN1CCCC1,-19.07,-
CN(C)S(=O)(=O)NCc1ccccc1CO,-,18.03
CCCn1nc(C(=O)NCc2csc(Br)c2)ccc1=O,89.53,81.3
CSc1ncccc1C(=O)NCC(=O)NC1CC1,-8.828,-